For assay [1], the system named is Phytophthora infestans. Nature of the assay: Test Example 1: fungicidal effect against tomato late blight, preventive effect (pot test, spray application before inoculation). Particulars: active ingredient concentration 400 ppm, 10 mL sprayed, lesion area ratio 3 days after inoculation. As to the method: (§1) The test compound and acetone or dimethyl sulfoxide were mixed to dissolve the test compound. The solution of the test compound was diluted with water to a predetermined concentration (400 ppm) of the test compound as an active ingredient to obtain chemical solutions. The chemical solutions thus obtained were used in the following Test Examples 1 to 3.
Test Example 1: Test on fungicidal effect against tomato late blight (Phytophthora infestans) (test on preventive effect)
Tomato was cultivated in a polyethylene pot having a diameter of 6 cm, and when the tomato reached 4.5- to 5.5-leaf stage, 10 mL of the chemical solution was applied by means of a spray gun. After the chemical solution dried (the day of application), the tomato was sprayed and inoculated with a suspension of spores of Phytophthora infestans and placed in an inoculation box at a temperature of 20°C under a humidity of 95% or higher for 16 hours. Then, the tomato was placed in a constant temperature room at 20°C. 3 Days after the inoculation, the lesion area ratio was visually examined, and the control value was calculated in accordance with the following formula. […] Control value (%) = 100−(X/Y) × 100 [formula] X: lesion area ratio (%) in treated plot, Y: lesion area ratio (%) in non-treated plot Test compounds: compound Nos. 1, 2, 3, 7, 8, 10, 11, 13, 17, 19, 32, 34, 41, 43, 47, 51, 53, 54, 55, 57, 58, 61, 71, 75, 84, 85, 86, 87, 90, 93, 94

Assay [2] deals with Pseudoperonospora cubensis. Briefly: Test Example 2: fungicidal effect against cucumber downy mildew, preventive effect (pot test, spray application before inoculation). The conditions noted are these: active ingredient concentration 400 ppm, 10 mL sprayed, lesion area ratio 7 days after inoculation. As to the method: as §1
Test Example 2: Test on fungicidal effect against cucumber downy mildew
(Pseudoperonospora cubensis) (test on preventive effect)
Cucumber was cultivated in a polyethylene pot having a diameter of 6 cm, and when the cucumber reached 1.2- to 1.5-leaf stage, 10 mL of the chemical solution was applied by means of a spray gun. After the chemical solution dried (the day of application or the next day), the cucumber was sprayed and inoculated with a suspension of spores of Pseudoperonospora cubensis and placed in an inoculation box at a temperature of 20°C under a humidity of 95% or higher for 24 hours. Then, the cucumber was placed in a constant temperature room at 20°C. 7 Days after the inoculation, the lesion area ratio was examined on the same basis as in Text Example 1, and the control value was calculated in accordance with the same formula as in Test Example 1.

Assay [3] has as its system Phytophthora infestans. Nature of the assay: Test Example 3: fungicidal effect against tomato late blight, curative effect (pot test, spray application after inoculation). The conditions noted are these: curative (applied 4 hours after inoculation), active ingredient concentration 400 ppm, 10 mL sprayed, lesion area ratio 3 days after inoculation. As to the method:
as §1
Test Example 3: Test on fungicidal effect against tomato late blight (Phytophthora infestans) (test on curative effect)
Tomato was cultivated in a polyethylene pot having a diameter of 6 cm, and when the tomato reached 4.5- to 5.5-leaf stage, the tomato was sprayed and inoculated with a suspension of spores of Phytophthora infestans and placed in an inoculation box at a temperature of 20°C under a humidity of 95% or higher for 4 hours. Then, 10 mL of the chemical solution was applied by means of a spray gun. After the chemical solution dried (the day of application), the tomato was placed in a constant temperature room at 20°C. 3 Days after the inoculation, the lesion area ratio was examined on the same basis as in Test Example 1, and the control value was calculated in accordance with the same formula as in Test Example 1. […] Test Compounds: compound Nos. 3, 7, 8, 10, 11, 13, 17, 19, 32, 34, 41, 51, 54, 55, 57, 58, 61, 84, 87

Where only a bound is given, the exact number is not on record here.

With `CON(Cc1cccnc1C#N)C(=O)c1sc(N)nc1Cl`, the control value with Phytophthora infestans [1] is reported as no less than 80%.

As to `CON(Cc1cc(F)c(Cl)nc1Cl)C(=O)c1sc(N)nc1Cl`, the control value (in the assay with Phytophthora infestans [1]; in assay [2]) was no less than 80% in each case.

As to `CON(Cc1cnccc1Cl)C(=O)c1cnc(N)s1`, the control value in the assay on Phytophthora infestans [1] and in the assay with Phytophthora infestans [3] was no less than 80% each time.

Turning to `C=CCON(Cc1cc(F)c(F)nc1Cl)C(=O)c1sc(N)nc1Cl`, the control value (in the assay on Phytophthora infestans [1]; with Phytophthora infestans [3]; in assay [2]) was no less than 80% each time.

Take `CON(Cc1cc(F)c(F)nc1Cl)C(=O)c1sc(N)nc1F`: the control value (in the assay with Phytophthora infestans [1]; in the assay with Phytophthora infestans [3]; in assay [2]) was no less than 80% throughout.

Consider `Cc1nc(C(F)F)c(C(=O)N(Cc2ccc(Cl)nc2)C2CC2)s1`, for which the control value entry (with Phytophthora infestans [1]; in the assay with Phytophthora infestans [3]; in assay [2]) was “less than 30%” each time.

In the case of `CON(Cc1cc(F)c(F)nc1Cl)C(=O)c1sc(N)nc1C#N`, the control value (with Phytophthora infestans [1]; in the assay on Phytophthora infestans [3]; in assay [2]) was no less than 80% in each case.

As for `CON(Cc1cc(F)cnc1Cl)C(=O)c1sc(N)nc1F`, the control value (in the assay with Phytophthora infestans [1]; in the assay on Phytophthora infestans [3]; in assay [2]) was no less than 80% throughout.

`N#CCON(Cc1cc(F)c(F)nc1Cl)C(=O)c1sc(N)nc1Cl`: the control value (in the assay with Phytophthora infestans [1]; in the assay on Phytophthora infestans [3]; in assay [2]) was no less than 80% in each case.

`CON(Cc1cnc(F)cc1Cl)C(=O)c1sc(N)nc1F`: the control value (with Phytophthora infestans [1]; with Phytophthora infestans [3]; in assay [2]) was no less than 80% throughout.

As to `CON(Cc1cccnc1[N+](=O)[O-])C(=O)c1sc(N)nc1Cl`, the control value with Phytophthora infestans [1] was no less than 80%.

With `CCON(Cc1cc(F)c(F)nc1Cl)C(=O)c1sc(N)nc1Cl`, the control value (in the assay on Phytophthora infestans [1]; in the assay with Phytophthora infestans [3]; in assay [2]) was no less than 80% in each case.

On to `CON(Cc1ccc(F)nc1Cl)C(=O)c1sc(N)nc1F`, for which the control value (in the assay with Phytophthora infestans [1]; in the assay with Phytophthora infestans [3]; in assay [2]) was no less than 80% each time.

Regarding `CON(Cc1cc(F)c(F)nc1C)C(=O)c1sc(N)nc1Cl`, the control value (in the assay on Phytophthora infestans [1]; in the assay with Phytophthora infestans [3]; in assay [2]) was no less than 80% each time.

On to `CON(Cc1cc(F)c(F)nc1Cl)C(=O)c1sc(N)nc1Cl`, for which the control value in the assay with Phytophthora infestans [1] and with Phytophthora infestans [3] was no less than 80% throughout.

Take `CON(Cc1cccnc1Cl)C(=O)c1cnc(N)s1`: the control value (with Phytophthora infestans [1]; in assay [2]) was no less than 80% throughout.

As to `CON(Cc1ccc(C)nc1Cl)C(=O)c1sc(N)nc1Cl`, the control value (in the assay on Phytophthora infestans [1]; in assay [2]) was no less than 80% in each case.

For the compound `COC(=O)CON(Cc1cc(F)c(F)nc1Cl)C(=O)c1sc(N)nc1Cl`, the control value (in the assay on Phytophthora infestans [1]; in assay [2]) was no less than 80% throughout.

On to `CON(Cc1cccnc1C(F)(F)F)C(=O)c1sc(N)nc1Cl`, for which, in the assay with Phytophthora infestans [1], the control value is no less than 80%.

Take `C=Cc1nc(F)c(F)cc1CN(OC)C(=O)c1sc(N)nc1Cl`: the control value (in the assay on Phytophthora infestans [1]; in assay [2]) was no less than 80% in each case.

In the case of `CON(Cc1cc(F)c(F)nc1F)C(=O)c1sc(N)nc1F`, the control value (in the assay with Phytophthora infestans [1]; in the assay with Phytophthora infestans [3]; in assay [2]) was no less than 80% in each case.

With `CON(Cc1cc(F)c(F)nc1F)C(=O)c1sc(N)nc1Cl`, the control value with Phytophthora infestans [1] and with Phytophthora infestans [3] was no less than 80% in each case.

As for `CON(Cc1cc(F)cnc1Cl)C(=O)c1sc(N)nc1Cl`, the control value (in the assay with Phytophthora infestans [1]; in the assay on Phytophthora infestans [3]; in assay [2]) was no less than 80% each time.

As for `CON(Cc1cnc(F)cc1Cl)C(=O)c1sc(N)nc1Cl`, the control value (with Phytophthora infestans [1]; with Phytophthora infestans [3]; in assay [2]) was no less than 80% throughout.

For `C#CCON(Cc1cc(F)c(F)nc1Cl)C(=O)c1sc(N)nc1F`, the control value (with Phytophthora infestans [1]; with Phytophthora infestans [3]; in assay [2]) was no less than 80% throughout.

In the case of `CCc1nc(F)c(F)cc1CN(OC)C(=O)c1sc(N)nc1Cl`, the control value (in the assay with Phytophthora infestans [1]; in assay [2]) was no less than 80% throughout.

Consider `CON(Cc1cc(F)c(F)nc1Cl)C(=O)c1sc(N)nc1C`, for which the control value (with Phytophthora infestans [1]; with Phytophthora infestans [3]; in assay [2]) was no less than 80% throughout.

For the compound `CON(Cc1cc(F)cnc1C#N)C(=O)c1sc(N)nc1Cl`, the control value (in the assay on Phytophthora infestans [1]; in assay [2]) was no less than 80% in each case.

Take `C#CCON(Cc1cc(F)c(F)nc1Cl)C(=O)c1sc(N)nc1Cl`: the control value (in the assay with Phytophthora infestans [1]; in the assay with Phytophthora infestans [3]; in assay [2]) was no less than 80% each time.

On to `CON(Cc1cc(F)c(F)nc1Cl)C(=O)c1cnc(N)s1`, for which the control value (with Phytophthora infestans [1]; with Phytophthora infestans [3]; in assay [2]) was no less than 80% throughout.

For `CON(Cc1cc(F)c(F)nc1Cl)C(=O)c1sc(N)nc1C(F)(F)F`, the control value (in the assay with Phytophthora infestans [1]; in assay [2]) was no less than 80% throughout.

For `CON(Cc1cccnc1Cl)C(=O)c1sc(N)nc1Cl`, the control value in the assay on Phytophthora infestans [1] is listed as no less than 80%.

For the origin of these results see EP4825856A1, “N-SUBSTITUTED OXY-2-AMINOTHIAZOLECARBOXAMIDE COMPOUND OR SALT THEREOF AND AGRICULTURAL AND HORTICULTURAL BACTERICIDE” (dated 2026).
